Results of unrelated studies side by side (data: NIAID ChemDB).

Common to all: cytotoxicity tests; cell line: MT-4; endpoint: CC50

CCn: concentration that lowers growth or viability of the cells by n%. Rows are shuffled and stem from different studies.

O=c1ccn([C@@H]2CC(CO)(CO)CS2)c(=O)[nH]1 ; value: >100 µg/mL
O=C(CSc1nc2ncccc2n1-c1ccc(C2CC2)c2ccccc12)Nc1cccnc1Cl ; read by: MTT ; value: 0.8 µM
CS(=O)(=O)c1ccc(OP(=O)(OC[C@@H]2C=C[C@H](n3cnc4c(=O)[nH]cnc43)O2)OC[C@@H]2C=C[C@H](n3cnc4c(=O)[nH]cnc43)O2)cc1 ; read by: trypan blue ; value: >250 µM
Cc1cccc(Cc2nc(OC3CCCC3)[nH]c(=O)c2C)c1 ; value: 335 µM
Cc1c(Cc2c(F)cccc2F)nc(SCc2ccc(C(C)C)cc2)[nH]c1=O ; read by: MTT ; value: >62 µM
COc1ccc2ccc(OC(C)=O)c(Cc3c[nH]c4ccc(Br)cc34)c2c1 ; value: 30 µM
COC(=O)c1ccc(NC(=O)CSc2nc3ncccc3n2-c2ccc(C3CC3)c3ccccc23)c(Br)c1 ; read by: MTT ; value: 2.87 µM
COc1ccc2c(Cc3c[nH]c4ccc(OC)cc34)c(OC(C)=O)ccc2c1 ; value: 34 µM
CC(Sc1nc2ncccc2n1-c1ccc(C2CC2)c2ccccc12)C(=O)Nc1ccc(S(N)(=O)=O)cc1Br ; read by: MTT ; value: 3.07 µM
CCOP(=O)(CC(=O)Nc1ccn([C@H]2CS[C@@H](CO)O2)c(=O)n1)OCC ; value: 500 µM
Cc1ccnc2c1NC(=O)c1cccnc1N2C1CC1 ; read by: MTT ; value: >15 µM
CO[Si](OC[C@H]1O[C@@H](n2cc(C)c(=O)n(C)c2=O)[C@H](O[Si](C)(C)C(C)(C)C)C12OS(=O)(=O)C=C2N)(c1ccccc1)C(C)(C)C ; value: 4.8 µM
CSc1ccc(OP(=O)(OC[C@@H]2C=C[C@H](n3cnc4c(N)ncnc43)O2)OC[C@@H]2C=C[C@H](n3cnc4c(N)ncnc43)O2)cc1 ; read by: trypan blue ; value: >250 µM
Cc1c(C(C)CC2CCCCC2)nc(SCC(=O)c2ccccc2)[nH]c1=O ; read by: MTT ; value: 179 µM
COc1ccc(CS(=O)(=O)c2nc(Cc3c(Cl)cccc3Cl)c(C)c(=O)[nH]2)cc1 ; read by: MTT ; value: 2.8 µM
CCC(C)Oc1nc(Cc2cc(C)cc(C)c2)cc(=O)[nH]1 ; value: >349 µM
Cc1cc(/C=C/CC#N)cc(C)c1Nc1ccnc(Nc2ccc(C#N)cc2)n1 ; read by: MTT ; value: 10 µM
Cc1cn([C@H]2C=C[C@@H](CO)O2)c(=O)[nH]c1=O ; read by: trypan blue ; value: 14 µM
COc1cc(CSc2nc(Cc3c(Cl)cccc3Cl)c(C)c(=O)[nH]2)cc(OC)c1 ; read by: MTT ; value: >55 µM
CCc1c(C(C)CC2CCCCC2)nc(SCC(=O)c2ccc(OC)cc2)[nH]c1=O ; read by: MTT ; value: 31 µM
Nc1ncnc2c1ncn2[C@@H]1CC(CO)(CO)CS1 ; value: >100 µg/mL
Cc1ccc(C(=O)Nc2ccc(S(=O)(=O)O)c3cc(S(=O)(=O)O)cc(S(=O)(=O)O)c23)cc1NC(=O)c1cccc(NC(=O)Nc2cccc(C(=O)Nc3cc(C(=O)Nc4ccc(S(=O)(=O)O)c5cc(S(=O)(=O)O)cc(S(=O)(=O)O)c45)ccc3C)c2)c1 ; value: 625 µM
Cc1ccc(S(=O)(=O)OC[C@H]2O[C@@H](n3cc(C)c(=O)n(C)c3=O)[C@H](O[Si](C)(C)C(C)(C)C)C23OS(=O)(=O)C=C3N)cc1 ; value: 42 µM
Cc1c(Cc2c(Cl)cccc2Cl)nc(SCc2ccccc2)[nH]c1=O ; read by: MTT ; value: >64 µM
Cc1cc(C#N)cc(C)c1Oc1nc(N/N=C/C2CCN(Cc3cccc(C(N)=O)c3)CC2)nc2ccsc12 ; read by: MTT ; value: 4.68 µM
C/C(C#N)=C\c1cc(C)c(Nc2ccnc(Nc3ccc(C#N)cc3)n2)c(C)c1 ; read by: MTT ; value: 20 µM
Nc1ccn([C@H]2CS[C@@H](COC(=O)CP(=O)(O)O)O2)c(=O)n1 ; value: 300 µM
COc1ccc2ccc(OC(C)=O)c(Cc3c[nH]c4ccccc34)c2c1 ; value: 55 µM
Nc1ncnc2c1ncn2[C@H]1C=C[C@@H](CO)O1 ; read by: trypan blue ; value: 10 µM
Cc1cn([C@@H]2O[C@H](CO[Si](C(C)(C)C)(C(C)(C)C)C(C)(C)C)C3(OS(=O)(=O)C=C3N)[C@H]2O[Si](C)(C)C(C)(C)C)c(=O)n(C)c1=O ; value: 50 µM
Cc1cc(C)cc(Cc2cc(=O)[nH]c(OCC(C)C)n2)c1 ; value: 104 µM
Cc1cc(C#N)cc(C)c1Oc1nc(N/N=C/C2CCN(Cc3ccc(C#N)cc3)CC2)nc2ccsc12 ; read by: MTT ; value: 23.6 µM
Cc1c(C(C)C2CCCCC2)nc(SCC(=O)c2ccc(O)cc2)[nH]c1=O ; read by: MTT ; value: 13 µM
Cc1cn([C@H]2C[C@H](N=[N+]=[N-])[C@@H](CO)O2)c(=O)[nH]c1=O ; read by: MTT ; value: >7.48 µg/mL
NC(=O)c1ccc(NC(=O)CSc2nc3ncccc3n2-c2ccc(C3CC3)c3ccccc23)c(Cl)c1 ; read by: MTT ; value: 0.68 µM
CC(c1cc(=O)[nH]c(SCC(=O)c2ccc(F)cc2)n1)C1CCCCC1 ; read by: MTT ; value: 165 µM
Cc1cn([C@@H]2O[C@H](CO[Si](c3ccccc3)(c3ccccc3)C(C)(C)C)C3(OS(=O)(=O)C=C3N)[C@H]2O[Si](C)(C)C(C)(C)C)c(=O)n(C)c1=O ; value: 45 µM
Cc1cccc(Cc2cc(=O)[nH]c(OCC(C)C)n2)c1 ; value: 132 µM
Cc1cc(COCCC#N)cc(C)c1Nc1ccnc(Nc2ccc(C#N)cc2)n1 ; read by: MTT ; value: 10 µM
N#Cc1ccc(NC(=O)CSc2nc3ncccc3n2-c2ccc(C3CC3)c3ccccc23)c(Br)c1 ; read by: MTT ; value: 2.78 µM
CC(=O)Oc1ccc2cc(Br)ccc2c1Cc1c(-c2ccccc2)[nH]c2ccccc12 ; value: 8 µM
CC(=O)Nc1ccn([C@H]2CS[C@@H](COC(=O)P(=O)(O)O)O2)c(=O)n1 ; value: 100 µM
CC(Sc1nc2ncccc2n1-c1ccc(C2CC2)c2ccccc12)C(=O)Nc1ccc(S(N)(=O)=O)cc1Cl ; read by: MTT ; value: 3.2 µM
CS(=O)(=O)c1ccc(OP(=O)(OC[C@@H]2CC[C@H](n3cnc4c(N)ncnc43)O2)OC[C@@H]2CC[C@H](n3cnc4c(N)ncnc43)O2)cc1 ; read by: trypan blue ; value: >250 µM
Cc1cc(C#N)cc(C)c1Oc1nc(N/N=C/C2CCN(Cc3ccncc3)CC2)nc2ccsc12 ; read by: MTT ; value: 5.52 µM
O=C(CSc1nc(CCC2CCCCC2)cc(=O)[nH]1)c1ccc(F)cc1 ; read by: MTT ; value: 80 µM
O=c1ccn([C@H]2C=C[C@@H](CO)O2)c(=O)[nH]1 ; read by: trypan blue ; value: 42 µM
CCOC(=O)c1ccc(NC(=O)CSc2nc3ncccc3n2-c2ccc(C3CC3)c3ccccc23)c(Br)c1 ; read by: MTT ; value: 3.19 µM
Cc1cn([C@@H]2O[C@H](CO[Si](C)(C)C(C)(C)C)C3(OS(=O)(=O)C=C3N)[C@H]2O[Si](C)(C)C(C)(C)C(C)C)c(=O)n(C)c1=O ; value: 62 µM
CC(=O)Oc1ccc2ccccc2c1Cc1c[nH]c2ccc(Br)cc12 ; value: 22 µM
Nc1ccn([C@H]2C=C[C@@H](CO)O2)c(=O)n1 ; read by: trypan blue ; value: 20 µM